# Experimental data taken from PubChem BioAssay AID588549 (Broad Institute, 2011).
# The list shows a part of the results, in another mix than the full data. The source made the active and inactive calls. No stated cut-off is given here; in the data, active means inhibition above about 8.5% (passing the limit was not always enough); inconclusive means no clear call, values can overlap the other calls.
# System: Mycobacterium tuberculosis FadD28 fatty-acid-AMP ligase
# Assay: inhibitors of FadD28 bisubstrate probe binding, primary screen, biochemical, fluorescence polarization, single point (AID 588549)
# Conditions: at 12.5 µM, hits give high values
row,Structure (SMILES),inhibition
1,CC(C)(C)C(=O)NC(Sc1ncccn1)C(Cl)(Cl)Cl (stereo not given),inactive: -5.16%
2,O=P1(N(CCCl)CCCl)NCCC(C(F)(F)F)O1 (stereo not given),inactive: -2.96%
3,Clc1n[nH]nc1-c1nn[nH][15n]1,inactive: 0.0055%
4,COc1ccccc1CNC(=O)COC(=O)C(O)(c1ccccc1)c1ccccc1,inactive: -4.91%
5,CC1(CBr)Cn2c(nc3ccccc3c2=O)S1 (stereo not given),inactive: -4.89%
6,CC(C)/C=N\N=C(\N)N[N+](=O)[O-],inactive: -0.982%
7,CN(C(=O)Cc1ccc(Cl)c(Cl)c1)[C@@H]1CCCC[C@H]1N1CCCC1,inactive: -0.608%
8,CS(=O)(=O)c1ccc(Cl)c(NC(=O)COC(=O)C(O)(c2ccccc2)c2ccccc2)c1,inactive: -4.74%
9,COc1cc(C(=O)NCC2(N3CCOCC3)CCCCC2)cc(Cl)c1OC(C)C,inactive: -5.08%
10,O=[As](O)(O)c1cccnc1,inactive: -3.12%
11,O=C(OC1CN2CCC1CC2)c1ccc(Cl)cc1 (stereo not given),inactive: 0.316%
12,O=[As](O)(c1cccc(O)c1)c1cccc(O)c1,inactive: 0.09%
13,Cc1cccc(OCC(=O)OC2CN3CCC2CC3)c1 (stereo not given),inactive: -2.21%
14,CCCOP(=S)(Nc1nc(N)cc(=O)[nH]1)OCCC,inactive: -3.84%
15,Cc1ccc(NCCc2c([N+](=O)[O-])cc([N+](=O)[O-])cc2[N+](=O)[O-])cc1,inactive: 2.07%
16,Nc1cccc2c([As](=O)(O)O)cccc12,active: 8.55%
17,CCOP(=O)(Nc1cccc2ccccc12)OCC,inactive: -0.797%
18,COc1cc(C2NCCC3(OCCO3)C2(C)C)cc(OC)c1OC (stereo not given),inactive: 0.247%
19,CS(=O)(=O)c1cc([N+](=O)[O-])c2no[n+]([O-])c2c1,inactive: -3.27%
20,O=P(Nc1nccs1)(c1ccccc1)c1nc2ccccc2s1 (stereo not given),inactive: -4.25%
21,O=P(Nc1nccs1)(Oc1ccccc1)Oc1ccccc1,inactive: -1.07%
22,CCOP1(=S)c2c(C)nn(CCC#N)c2N=C(c2ccccc2F)N1C (stereo not given),inactive: -2.39%
23,Nc1ccccc1[As](=O)(O)c1ccccc1,inactive: 0.485%
24,O=C(O)COc1ccc([As](=O)(O)O)cc1[N+](=O)[O-],inactive: -1.68%

row,Structure (SMILES),inhibition
1,NC(=O)Nc1ccc([As](=O)(O)O)cc1,inactive: -2.33%
2,CN(C(=O)Cc1ccc(Cl)c(Cl)c1)[C@H]1CC[C@@]2(CCCO2)C[C@@H]1N1CCCC1,inactive: -2.86%
3,CN(C)C(=O)c1cc([N+](=O)[O-])cc2c1-c1c(cc([N+](=O)[O-])cc1[N+](=O)[O-])C2=O,inactive: -3.68%
4,O=[N+]([O-])c1ccc2c(c1)nnn2O,inactive: -1.64%
5,CCOP1(=S)c2c(C)nn(CCC#N)c2N=C(c2ccc(F)cc2)N1C (stereo not given),inactive: -1.47%
6,N#CCCN(C(=O)COC(=O)C(O)(c1ccccc1)c1ccccc1)c1ccc(F)cc1,inactive: -0.72%
7,COc1cc(C(=O)NCC2(N3CCOCC3)CCCCC2)ccc1OCC(C)C,inactive: -3.49%
8,O=[N+]([O-])c1ccc(-c2cc([N+](=O)[O-])c(O)c([N+](=O)[O-])c2)cc1,inactive: 1.76%
9,O=[As](O)(c1ccc(O)cc1)c1ccccc1O,inactive: -4.87%
10,C[As](=O)(O)c1cccc(C(=O)O)c1,inactive: -5.35%
11,Cc1ccc2nc3c(c(C)c2c1)CC(C(Cl)Cl)S3 (stereo not given),inactive: -0.922%
12,Cc1ccc(OP(=O)(Nc2ccc([N+](=O)[O-])cn2)Oc2ccc(C)cc2)cc1,inactive: -1.66%
13,CC(C)c1ccc(OP(=O)(Nc2ccccn2)Oc2ccccc2F)cc1 (stereo not given),inactive: -2.04%
14,COC(=O)C1(C)COP(=O)(N2CCCCCC2)OC1 (stereo not given),inactive: -1.31%
15,ClCCSc1nnc(-c2cccnc2)o1,inactive: -3.69%
16,O=[N+]([O-])c1cc([N+](=O)[O-])c(-c2ccn[nH]2)s1,inactive: 1.63%
17,CCN(CC)C(=S)SC(NC=O)C(Cl)(Cl)Cl (stereo not given),inactive: -3.65%
18,O=C(OC1CN2CCC1CC2)c1cccc2[nH]cnc12 (stereo not given),inactive: -0.416%
19,CC(C)NC(=O)NP(=O)(Oc1ccccc1)Oc1ccccc1,inactive: -0.971%
20,Cc1cc(=O)[nH]c(N[N+](=O)[O-])n1,inactive: -2.2%
21,O=C(OC1CN2CCC1CC2)C12CC3CC(CC(C3)C1)C2 (stereo not given),inactive: -2.58%
22,Cc1c2c(nc3ccccc13)SC(C(Cl)Cl)C2 (stereo not given),inactive: -4.75%
23,COc1cc(I)ccc1[As](=O)(O)O,inactive: -1.53%
24,COc1ccc2nc(NP(=O)(c3ccccc3)c3ccccc3)sc2c1,inactive: -3.94%

row,Structure (SMILES),inhibition
1,O=P1(N(CCCl)CCCl)Nc2ccccc2N1,inactive: -2.1%
2,O=P1(N(CCCl)CCCl)OCCCN1CCCl (stereo not given),inactive: -0.973%
3,COc1ccc(N/C(=N/P(=O)(N2CCOCC2)N2CCOCC2)N2CCOCC2)cc1,inactive: -2.96%
4,O=[N+]([O-])c1cc(Oc2ccc([N+](=O)[O-])cc2C(F)(F)F)cc([N+](=O)[O-])c1,inactive: -2.2%
5,COC(=O)C1(C)COP(=O)(N2CCCC2)OC1 (stereo not given),inactive: -0.426%
6,COP1(=S)c2c(C)nn(CCC#N)c2N=C(c2ccc(F)cc2)N1C (stereo not given),inactive: 0.002%
7,O=C(Nc1ccncc1[N+](=O)[O-])c1ccc([N+](=O)[O-])cc1[N+](=O)[O-],inactive: -1.46%
8,O=C(COc1ccccc1)OC1CN2CCC1CC2 (stereo not given),inactive: 1.58%
9,O=C(O)C(=O)c1ccc(N(CCCl)CCCl)cc1,inactive: -3.85%
10,CCOC(=O)c1ccc(NC(=O)C(C)(CCl)SC)cc1 (stereo not given),inactive: -1.93%
11,CSc1ccc(Nc2c([N+](=O)[O-])cc([N+](=O)[O-])cc2[N+](=O)[O-])cc1,inactive: 1.48%
12,CCC(C)N(CC(C)C)C(=S)SC(NC(C)=O)C(Cl)(Cl)Cl (stereo not given),inactive: -3.27%
13,CC1CCNP(=O)(N(CCCl)CCCl)O1 (stereo not given),inactive: -3.53%
14,CCOC(=O)Nc1ccc([As](=O)(O)O)c(O)c1,inactive: -2.41%
15,O=C(O)C(O)c1ccc(N(CCCl)CCCl)cc1 (stereo not given),inactive: 0.146%
16,Cc1cc(SC(NC(=O)c2ccccc2)C(Cl)(Cl)Cl)nc(C(C)C)n1 (stereo not given),inactive: 0.548%
17,CCCCOc1ccc(C(=O)NCC2(N3CCCCC3)CCCCC2)cc1OC,inactive: -2.3%
18,COP(=O)(OC)N1CC1c1ccccc1 (stereo not given),inactive: -1.77%
19,CCOC(=O)Nc1cccc([As](=O)(O)O)c1,inactive: -1.11%
20,O=[N+]([O-])c1ccc(Nc2ccc(Oc3ccc([N+](=O)[O-])cc3[N+](=O)[O-])cc2)c([N+](=O)[O-])c1,inactive: -3.77%
21,O=P(Nc1ccccn1)(c1cccc2ccccc12)c1cccc2ccccc12,inactive: -2.32%
22,Cc1cc(SC(NC=O)C(Cl)(Cl)Cl)ncn1 (stereo not given),inactive: -0.808%
